In patent publication US6849601B1 (priority 1998, dated 2005):

Molecular target: α1-adrenoceptor of the rat vas deferens (rat), P18090
Assay: cell-based or functional assay

Binder: FNWRCCLIPACRRNHKKFC (modifications not checked) [ρ-TIA]
- maximum response to noradrenaline at 3 µM ρ-TIA, as % of the control response (% of control response): 82
- maximum response to noradrenaline at 10 µM ρ-TIA, as % of the control response (% of control response): 42
